Measurements reported in PubChem BioAssay AID624099 (ICCB-Longwood, 2012).

Screen: 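Knock-downs relieving repression by E2 of an HPV18 LCR luciferase reporter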 (primary screen)
Cell system: human C33A cervical carcinoma cells (HPV-negative) stably expressing BPV1 E2 and an HPV18 LCR luciferase reporter
Reagents: siRNA pool against human genes, 40 nM
Duration: 72 h
Measurement: 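HPV18 LCR reporter light per well, converted to plate-wise z-scores that exclude control wells, and averaged over triplicate plates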
Scale: mean z-score and z-score: higher = stronger reporter signal, weaker E2 silencing
Active means: 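Mean z ≥ 2 together with z ≥ 2 in two or more of the three replicates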
Shown is a random part of about 21,000 deposited reagents. 497 of them (2.4%) count as active. 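Higher z means weaker E2 silencing; only reporter increases were scored, and knock-downs that hurt cell survival may mask genuine repressor factors.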 The numbers tell different reagents against one gene apart.

Gene	reagent	mean z-score	z-score, replicate A	z-score, replicate B	z-score, replicate C	activity call
GNB4 (G protein subunit beta 4)	1	-0.62	-0.11	-0.79	-0.95	inactive
COL8A2 (collagen type VIII alpha 2 chain)	1	0.42	0.36	0.6	0.31	inactive
AK3 (adenylate kinase 3)	1	-0.38	-0.35	-0.35	-0.43	inactive
IQSEC1 (IQ motif and Sec7 domain ArfGEF 1)	1	0.06	0.09	0.09	0.01	inactive
INTS7 (integrator complex subunit 7)	1	3.97	3.98	3.74	4.19	active
POU4F3 (POU class 4 homeobox 3)	1	-0.2	-0.18	-0.29	-0.12	inactive
LOC221344 (retired record)	1	-1.1	-0.65	-1.03	-1.62	inactive
BLOC1S5 (biogenesis of lysosomal organelles complex 1 subunit 5)	1	0.76	0.5	0.82	0.96	inactive
CDK2AP2P3 (cyclin dependent kinase 2 associated protein 2 pseudogene 3)	1	2.96	3.04	2.82	3.01	active
RGSL1 (regulator of G protein signaling like 1)	1	0.21	0.38	0.23	0.03	inactive
RGSL1 (regulator of G protein signaling like 1)	2	-0.55	-0.81	-0.7	-0.16	inactive
DYRK1B	1	-0.07	-0.13	0.02	-0.08	inactive
FRAT1 (FRAT regulator of Wnt signaling pathway 1)	1	-0.57	-0.46	-0.6	-0.65	inactive
TMCO6 (transmembrane and coiled-coil domains 6)	1	-0.67	-0.45	-0.85	-0.7	inactive
SPDYE8 (speedy/RINGO cell cycle regulator family member E8)	1	-1.56	-1.64	-1.46	-1.59	inactive
SPDYE8 (speedy/RINGO cell cycle regulator family member E8)	2	-0.02	-0.3	0.15	0.1	inactive
CLN3 (CLN3 lysosomal/endosomal transmembrane protein, battenin)	1	-0.56	-0.54	-0.74	-0.39	inactive
KRR1 (KRR1 small subunit processome component)	1	-1.07	-0.75	-1.43	-1.03	inactive
FYTTD1 (forty-two-three domain containing 1)	1	2.87	2.61	2.94	3.06	active
HMGCS2 (3-hydroxy-3-methylglutaryl-CoA synthase 2)	1	-1.15	-0.88	-1.71	-0.86	inactive
PLA2G2E (phospholipase A2 group IIE)	1	-0.76	-0.69	-0.93	-0.65	inactive
PCDHA7 (protocadherin alpha 7)	1	1	0.84	0.94	1.21	inactive
RNF19B (ring finger protein 19B)	1	1.25	1.22	1.07	1.45	inactive
LOC389819 (retired record)	1	0.47	0.54	0.48	0.39	inactive
TRIM16 (tripartite motif containing 16)	1	-0.34	-0.16	-0.47	-0.4	inactive
TRPV4	1	1.89	1.69	2.24	1.74	inactive
CBX6 (chromobox 6)	1	0.44	0.16	0.55	0.62	inactive
TCTN2 (tectonic family member 2)	1	0.84	1.13	1.08	0.29	inactive
SLC5A3	1	-0.73	-0.53	-0.95	-0.71	inactive
CDH4 (cadherin 4)	1	0.04	0.24	0.09	-0.22	inactive
TBC1D30 (TBC1 domain family member 30)	1	0.47	0.72	0.5	0.21	inactive
PKLR (pyruvate kinase L/R)	1	-1.35	-1.42	-1.29	-1.33	inactive
ZNF432 (zinc finger protein 432)	1	-0.6	-0.53	-0.66	-0.62	inactive
ABCA12 (ATP binding cassette subfamily A member 12)	1	0.7	0.7	0.66	0.72	inactive
TEX56P (testis expressed 56, pseudogene)	1	0.19	0.26	-0.05	0.37	inactive
RAP2C (RAP2C, member of RAS oncogene family)	1	-0.77	-0.95	-0.69	-0.67	inactive
LOC144631 (retired record)	1	-0.28	-0.14	-0.15	-0.54	inactive
KCNH1 (potassium voltage-gated channel subfamily H member 1)	1	-0.35	-0.44	-0.27	-0.34	inactive
LNPK (lunapark, ER junction formation factor)	1	0.17	0.32	0.02	0.16	inactive
SLC6A7	1	-0.6	-0.36	-0.67	-0.78	inactive
CPNE9 (copine family member 9)	1	0.68	0.98	0.26	0.81	inactive
SPTY2D1 (SPT2 chromatin protein domain containing 1)	1	1.15	1.45	1.1	0.9	inactive
LOC338999 (retired record)	1	-1.55	-1.54	-1.59	-1.54	inactive
TUBE1 (tubulin epsilon 1)	1	-1.49	-1.57	-1.45	-1.46	inactive
LOC388134 (retired record)	1	-4.01	-3.74	-4.32	-3.98	inactive
TSNAXIP1 (translin associated factor X interacting protein 1)	1	-0.29	-0.89	0.12	-0.08	inactive
HUNK (hormonally up-regulated Neu-associated kinase)	1	-0.3	-0.16	-0.77	0.03	inactive
KCNK15 (potassium two pore domain channel subfamily K member 15)	1	1.08	0.97	1.05	1.23	inactive
KREMEN1 (kringle containing transmembrane protein 1)	1	0.14	-0.03	0.28	0.17	inactive
LINC01483 (long independently transcribed non-coding RNA 1483)	1	0.74	0.49	0.67	1.05	inactive
OR1E1 (olfactory receptor family 1 subfamily E member 1)	1	-1.95	-2.14	-1.99	-1.72	inactive
TRAPPC4 (trafficking protein particle complex subunit 4)	1	-0.4	-0.33	-0.57	-0.29	inactive
LRRC8A (leucine rich repeat containing 8 VRAC subunit A)	1	-0.84	-1.08	-0.5	-0.94	inactive
DUSP14 (dual specificity phosphatase 14)	1	-0.26	-0.13	-0.51	-0.15	inactive
LOC729645 (retired record)	1	0.36	-0.01	0.49	0.61	inactive
RASEF (RAS and EF-hand domain containing)	1	-0.08	0.23	-0.12	-0.34	inactive
MAPRE2 (microtubule associated protein RP/EB family member 2)	1	0.74	0.66	0.8	0.78	inactive

Part of the list above, set out differently.
KCNK15 (potassium two pore domain channel subfamily K member 15) — mean z-score = 1.08; z-score, replicate A = 0.97; z-score, replicate B = 1.05; z-score, replicate C = 1.23; activity call = inactive
KREMEN1 (kringle containing transmembrane protein 1) — mean z-score = 0.14; z-score, replicate A = -0.03; z-score, replicate B = 0.28; z-score, replicate C = 0.17; activity call = inactive
LINC01483 (long independently transcribed non-coding RNA 1483) — mean z-score = 0.74; z-score, replicate A = 0.49; z-score, replicate B = 0.67; z-score, replicate C = 1.05; activity call = inactive
OR1E1 (olfactory receptor family 1 subfamily E member 1) — mean z-score = -1.95; z-score, replicate A = -2.14; z-score, replicate B = -1.99; z-score, replicate C = -1.72; activity call = inactive
TRAPPC4 (trafficking protein particle complex subunit 4) — mean z-score = -0.4; z-score, replicate A = -0.33; z-score, replicate B = -0.57; z-score, replicate C = -0.29; activity call = inactive
LRRC8A (leucine rich repeat containing 8 VRAC subunit A) — mean z-score = -0.84; z-score, replicate A = -1.08; z-score, replicate B = -0.5; z-score, replicate C = -0.94; activity call = inactive
